## HIV-1 NL4-3 point mutations in RT: replication capacity

The measurements come from Al-Mawsawi et al. 2014 (doi:10.1186/s12977-014-0124-6).

Protein: RT of HIV-1 NL4-3, numbered from its first residue.
Effects on overlapping genes or RNA elements are not listed.

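Seven fragments of pNL4-3 were mutated by error-prone PCR, and each virus pool was passaged in CEM T cells. The RC index is the frequency of a change after passage round 2 divided by its frequency in the plasmid library.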

RC index: lower means poorer replication; rough cut-offs are 0.1 (lethal) and 0.2 (tolerated).
Substitutions are written as wild-type residue, site number, new residue.
Input reads are the counts in the plasmid library.
Clones carried about five changes per kilobase, which can drag down the index of neutral changes.

substitution,base,input reads,replication capacity index
I178L,A3081T,412,0.0502
I178T,T3082C,189,0.119
I178M,A3083G,209,0.140
V179I,G3084A,311,0.205
V179D,T3085A,425,0.0446
V179A,T3085C,80,0.172
I180V,A3087G,329,0.0629
Y181F,A3091T,302,0.0343
Q182R,A3094G,332,0.0416
M184V,A3099G,183,0.0848
M184T,T3100C,290,0.0476
M184I,G3101T,255,0.135
D185N,G3102A,114,0.956
D185Y,G3102T,177,0.0849
D186G,A3106G,379,0.0248
D186V,A3106T,337,0.0502
D186E,T3107A,214,0.0702
L187V,T3108G,54,0.139
L187W,T3109G,176,0.0427
Y188H,T3111C,162,0.0812
Y188F,A3112T,157,0.108
V189E,T3115A,204,0.0921
G190R,G3117A,366,0.436
S191P,T3120C,274,0.0754
S191Y,C3121A,135,0.139
D192N,G3123A,408,0.857
D192Y,G3123T,149,0.353
D192G,A3124G,207,0.0454
D192V,A3124T,383,0.0343
L193I,T3126A,446,0.0548
L193F,A3128T,474,0.0317
I195L,A3132T,296,0.0635
I195K,T3133A,532,0.0424
G196V,G3136T,239,0.0786
Q197K,C3138A,126,0.0746
Q197L,A3139T,308,0.0305
H198N,C3141A,138,0.109
H198R,A3142G,297,0.0443
H198L,A3142T,445,0.0422
T200A,A3147G,153,0.0860
T200S,A3147T,115,0.114
K201T,A3151C,213,0.0529
K201R,A3151G,225,0.0752
K201I,A3151T,407,0.0323
I202L,A3153T,191,0.187
E203V,A3157T,241,0.0702
E203D,G3158T,323,0.0756
E204K,G3159A,213,0.679
E204G,A3160G,272,0.0415
L205M,C3162A,75,0.0501
L205Q,T3163A,508,0.0259
L205P,T3163C,352,0.0854
R206G,A3165G,331,0.0738
Q207P,A3169C,67,0.0841
Q207R,A3169G,391,0.0865
Q207L,A3169T,210,0.0179
H208R,A3172G,268,0.0351
L209M,C3174A,314,0.0598
L209V,C3174G,77,0.0976
L209R,T3175G,72,0.104
L210V,T3177G,126,0.0597
L210S,T3178C,281,0.0468
R211K,G3181A,341,0.193
W212R,T3183C,335,0.0449
W212S,G3184C,88,0.0641
G213R,G3186A,288,0.287
G213E,G3187A,137,0.658
F214S,T3190C,251,0.0449
T216S,A3195T,399,0.0424
T216K,C3196A,82,0.160
T216I,C3196T,562,0.0635
P217T,C3198A,233,0.0807
P217Q,C3199A,104,0.181
P217L,C3199T,400,0.0564
D218N,G3201A,196,0.316
D218V,A3202T,340,0.0332
K219E,A3204G,158,0.0595
K219R,A3205G,220,0.0342
K219N,A3206T,292,0.0386
K220R,A3208G,200,0.0940
H221Y,C3210T,324,0.0754
H221R,A3211G,196,0.0671
K223R,A3217G,438,0.0343
E224G,A3220G,121,0.140
P226S,C3225T,372,0.0859
P226L,C3226T,331,0.0568
F227L,C3230A,187,0.161
L228I,C3231A,424,0.0620
W229R,T3234C,325,0.0463
W229L,G3235T,186,0.192
W229C,G3236T,243,0.0851
M230V,A3237G,197,0.191
M230L,A3237T,323,0.0349
G231S,G3240A,207,0.157
G231D,G3241A,169,0.117
Y232H,T3243C,191,0.0519
E233G,A3247G,142,0.0997
L234H,T3250A,337,0.00420
H235P,A3253C,58,0.0244
P236H,C3256A,282,0.0552
P236L,C3256T,154,0.129
K238R,A3262G,252,0.0112
K238N,A3263T,251,0.0113
T240I,C3268T,309,0.101
V241L,G3270T,147,0.0193
V241G,T3271G,50,0.113
Q242H,G3275T,188,0.0151
V245M,G3282A,202,0.0490
V245L,G3282T,122,0.0464
P247L,C3289T,36,0.197
E248G,A3292G,84,0.371
K249Q,A3294C,73,0.0194
S251C,A3300T,127,0.0111
T253N,C3307A,140,0.142
V254L,G3309C,44,0.0643
N255D,A3312G,283,0.0800
I257L,A3318T,283,0.0300
Q258K,C3321A,76,0.0745
Q258L,A3322T,231,0.0184
V261M,G3330A,265,0.150
V261L,G3330T,91,0.0311
K263E,A3336G,167,0.0254
K263N,A3338T,478,0.0157
L264S,T3340C,711,0.0295

The first 9 entries again:

{"substitution": "I178L", "base": "A3081T", "input reads": "412", "replication capacity index": 0.0502}
{"substitution": "I178T", "base": "T3082C", "input reads": "189", "replication capacity index": 0.119}
{"substitution": "I178M", "base": "A3083G", "input reads": "209", "replication capacity index": 0.140}
{"substitution": "V179I", "base": "G3084A", "input reads": "311", "replication capacity index": 0.205}
{"substitution": "V179D", "base": "T3085A", "input reads": "425", "replication capacity index": 0.0446}
{"substitution": "V179A", "base": "T3085C", "input reads": "80", "replication capacity index": 0.172}
{"substitution": "I180V", "base": "A3087G", "input reads": "329", "replication capacity index": 0.0629}
{"substitution": "Y181F", "base": "A3091T", "input reads": "302", "replication capacity index": 0.0343}
{"substitution": "Q182R", "base": "A3094G", "input reads": "332", "replication capacity index": 0.0416}

Base changes are numbered along pNL4-3.
The authors read an index above 1 as above wild type (1.9% of all changes in the genome).